Pooled drug test results. Numbers come from NIAID ChemDB, via PubChem.

All rows: whole-cell or culture tests; organism: Candida albicans

A number after MIC or MFC names an inhibition level or a share of isolates.

CCCCCCCC[C@H]1OC(=O)CNC(=O)[C@@H]([C@H](C)O)NC(=O)[C@@H](CO)NC(=O)[C@H]([C@H](C)CC)NC(=O)[C@H](CC(C)C)N(C)C(=O)[C@@H]1C ; measure: MIC ; value: >100 µg/mL
CCc1ccc(-c2nc3cc(NC(=O)Cc4ccc(Cl)cc4)ccc3o2)cc1 ; measure: MIC ; strain: ATCC 10145 ; value: 50 µg/mL
O=c1c2sc3c(=O)n(Cc4ccccc4)c(=O)c3sc2c(=O)n1Cc1ccccc1 ; measure: MIC ; strain: ATCC 90028 ; value: 3.2 µg/mL
CCc1ccc(-c2nc3cc(NC(=O)CN4CCOCC4)ccc3o2)cc1 ; measure: MIC ; strain: ATCC 10145 ; value: 25 µg/mL
Clc1ccc(CN(Cc2ccc(-c3ccccc3)cc2)n2ccnc2)c(Cl)c1 ; measure: MFC ; value: 6.2 µM
NC(=S)c1ccnc(SC2CCCCC2)c1 ; measure: MIC ; strain: 3a ; value: 50 µg/mL
CC1Oc2ccccc2C(=O)C1n1ccnc1 ; method: agar ; measure: MIC ; strain: PTCC 5027 ; value: 64 µg/mL
Oc1ccc(Cl)cc1N=Cc1cccc(O)c1O ; method: broth dilution ; measure: MIC ; strain: ATCC 10231 ; value: 19.5 µg/mL
Oc1ccc(C(=S)n2nnnc2-c2ccc(Cl)cc2)c(O)c1 ; measure: MIC ; strain: ATCC 10231 ; value: 25 µg/mL
O=C(Cc1ccc([N+](=O)[O-])cc1)Nc1ccc2oc(-c3ccccc3)nc2c1 ; measure: MIC ; strain: ATCC 10145 ; value: 25 µg/mL
COC(=O)[C@@H]1N=C1/C=C\CCCCCCCCCCCCC(C)(C)C ; measure: MIC ; strain: 96-489 ; value: >64 µg/mL
O=c1oc(=NC2CCCCC2)c2sc3c(=O)oc(=NC4CCCCC4)c3sc12 ; measure: MIC ; strain: ATCC 90028 ; value: >51.2 µg/mL
CN1CCN(CC(=O)Nc2ccc3oc(-c4ccc(F)cc4)nc3c2)CC1 ; measure: MIC ; strain: ATCC 10145 ; value: 25 µg/mL
CCCCCCCCCCCCC/C=C\C1=N[C@H]1C(=O)OC ; measure: MIC ; strain: ATCC 14503 ; value: 8 µg/mL
Oc1ccc(Cl)cc1N=Cc1cc(Cl)cc(Br)c1O ; method: broth dilution ; measure: MIC ; strain: ATCC 10231 ; value: 19.5 µg/mL
Cc1ccc(C(C)C)c(O)c1 ; method: broth dilution ; measure: MIC ; strain: ATCC10259 ; value: 93000 µg/mL
CC(C)C[C@@H]1NC(=O)[C@H]2CCCN2C1=O ; method: broth dilution ; measure: MIC ; strain: MTCC 277 ; value: 16 µg/mL
CCCCCCCCSc1cc(C(N)=S)ccn1 ; measure: MFC ; strain: 176 ; value: 200 µg/mL
CCOC(=O)Cc1nnnn1C(=S)c1ccc(O)cc1O ; measure: MIC ; strain: 10 isolates ; value: 25 µg/mL
CN1CCN(CC(=O)Nc2ccc3oc(-c4ccc(C(C)(C)C)cc4)nc3c2)CC1 ; measure: MIC ; strain: ATCC 10145 ; value: 50 µg/mL
Fc1ccc(CN(Cc2ccc(-c3ccccc3)cc2)n2ccnc2)cc1 ; measure: MFC ; value: 200 µM
CN1CCN(CC(=O)Nc2ccc3oc(-c4ccccc4)nc3c2)CC1 ; measure: MIC ; strain: ATCC 10145 ; value: 50 µg/mL
CC(C)N=C(N)c1ccc2nc(-c3ccc4c(c3)Cc3cc(-c5nc6ccc(C(N)=NC(C)C)cc6[nH]5)ccc3-4)[nH]c2c1 ; measure: MFC ; strain: Isolate CA2601 fluconazole-resistant ; value: 1.56 µg/mL
Nc1nc(=O)n([C@H]2O[C@@H](CO)[C@H](O)[C@@H]2O)cc1F ; method: broth dilution ; measure: MIC ; strain: ATCC 90028 ; value: 0.75 µg/mL
Oc1ccc(C(=S)N2CCN=C2Cc2cccc3ccccc23)c(O)c1 ; measure: MIC ; strain: ATCC 10231 ; value: 50 µg/mL
CC(C)(O)c1cn(-c2ccc(Cl)cc2)nn1 ; method: broth dilution ; measure: MIC ; strain: URM 4606 ; value: 128 µg/mL
CCC(C)CC(C)CCCCCCCCC(=O)N[C@H]1C[C@@H](O)[C@H](NCCN)NC(=O)[C@@H]2[C@@H](O)CCN2C(=O)[C@H]([C@H](O)CCN)NC(=O)[C@H]([C@H](O)[C@@H](O)c2ccc(O)cc2)NC(=O)[C@@H]2C[C@@H](O)CN2C(=O)[C@H]([C@@H](C)O)NC1=O ; method: broth dilution ; measure: MIC ; strain: 8649 ; value: 4 µg/mL
c1ccc(CN(Cc2ccc(-c3ccccc3)cc2)n2ccnc2)cc1 ; measure: MIC ; value: 200 µM
CC(C)C[C@@H]1NC(=O)[C@@H]2CCCN2C1=O ; method: broth dilution ; measure: MIC ; strain: MTCC 277 ; value: 50 µg/mL
CCCSc1cc(C(N)=S)ccn1 ; measure: MFC ; strain: 3a ; value: 200 µg/mL
Clc1ccc2c(c1)OCC(n1ccnc1)/C2=N\Nc1ccccc1 ; method: agar ; measure: MIC ; strain: PTCC 5027 ; value: 16 µg/mL
CCCCCC[C@H]1OC(=O)CNC(=O)[C@@H]([C@@H](C)O)NC(=O)[C@@H](CO)NC(=O)[C@H]([C@H](C)CC)NC(=O)[C@H](CC(C)C)N(C)C(=O)[C@@H]1C ; measure: MIC ; value: >100 µg/mL
CC[C@@H]([C@H](C)O)n1ncn(-c2ccc(N3CCN(c4ccc(OC[C@@H]5CO[C@@](Cn6cncn6)(c6ccc(F)cc6F)C5)cc4)CC3)cc2)c1=O ; method: broth dilution ; measure: MIC ; strain: 8649 ; value: 0.03 µg/mL
O=C1C[C@H](Sc2ccccc2)N1 ; measure: MIC ; value: 8–64 µg/mL
Oc1ccccc1C=Nc1cc(Cl)ccc1O ; method: broth dilution ; measure: MIC ; strain: ATCC 10231 ; value: 39 µg/mL
CCC1CCCC(CC)C(=O)NCCCC(CC)C(OC2OC(C)C(O)C(N)C2OC2OC(CO)C(OC3OC(CO)C(O)C(O)C3O)C(O)C2O)CC1 ; measure: Mean MIC ; strain: 12 strains ; value: 50.8 µg/mL
CCCCCCCCCCCCC/C=C/C1=N[C@H]1C(=O)OC ; measure: MIC ; strain: 96-489 ; value: >64 µg/mL
CCCn1c(=O)c2sc3c(=O)n(CCC)c(=O)c3sc2c1=O ; measure: MIC ; strain: ATCC 90028 ; value: <0.1 µg/mL
Oc1ccc(Cl)cc1N=Cc1cc(Cl)cc(Cl)c1O ; method: broth dilution ; measure: MIC ; strain: ATCC 10231 ; value: 3.9 µg/mL
Clc1ccccc1CN(Cc1ccc(-c2ccccc2)cc1)n1ccnc1 ; measure: MFC ; value: 33 µM
CCS(=O)(=O)C(F)(F)C(O)(Cn1cncn1)c1ccc(F)cc1F ; measure: MIC90 ; strain: 55 strains ; value: 0.125 µg/mL
CO[N-]c1nc(N(C)C)nc2c1[N+](C/C=C(\C)CC/C=C(\C)CC/C=C(\C)CCC=C(C)C)=C=[N+]2C ; method: agar ; measure: MIC ; strain: ATCC 90028 ; value: 2 µg/mL
CCCCC/C=C\C1=N[C@H]1C(=O)OC ; measure: MIC ; strain: UCD-FR1 ; value: >64 µg/mL
CO[N-]c1nc(Cl)nc2c1[N+](C/C=C(\C)CC/C=C(\C)CC/C=C(\C)CCC=C(C)C)=C=[N+]2C ; method: agar ; measure: MIC ; strain: ATCC 90028 ; value: >16 µg/mL
CCc1ccc(-c2nc3cc(NC(=O)Cc4ccc(Br)cc4)ccc3o2)cc1 ; measure: MIC ; strain: ATCC 10145 ; value: 50 µg/mL
CCOc1nc([N-]OC)c2c(n1)[N+](C)=C=[N+]2C/C=C(\C)CC/C=C(\C)CC/C=C(\C)CCC=C(C)C ; method: agar ; measure: MIC ; strain: ATCC 90028 ; value: 4 µg/mL
CCCCCCCCCC[C@H]1OC(=O)CNC(=O)[C@@H]([C@H](C)O)NC(=O)[C@@H](CO)NC(=O)[C@H]([C@H](C)CC)NC(=O)[C@H](CC(C)C)N(C)C(=O)[C@@H]1C ; measure: MIC ; value: >100 µg/mL

7 of the rows above, restated:

Oc1ccc(Cl)cc1N=Cc1cc(Cl)cc(Cl)c1O ; method: broth dilution ; measure: MIC ; strain: ATCC 10231 ; value: 3.9 µg/mL
CC1Oc2ccccc2C(=O)C1n1ccnc1 ; method: agar ; measure: MIC ; strain: PTCC 5027 ; value: 64 µg/mL
COC(=O)[C@@H]1N=C1/C=C\CCCCCCCCCCCCC(C)(C)C ; measure: MIC ; strain: 96-489 ; value: >64 µg/mL
NC(=S)c1ccnc(SC2CCCCC2)c1 ; measure: MIC ; strain: 3a ; value: 50 µg/mL
CCCCCCCCCCCCC/C=C/C1=N[C@H]1C(=O)OC ; measure: MIC ; strain: 96-489 ; value: >64 µg/mL
Fc1ccc(CN(Cc2ccc(-c3ccccc3)cc2)n2ccnc2)cc1 ; measure: MFC ; value: 200 µM
CCOc1nc([N-]OC)c2c(n1)[N+](C)=C=[N+]2C/C=C(\C)CC/C=C(\C)CC/C=C(\C)CCC=C(C)C ; method: agar ; measure: MIC ; strain: ATCC 90028 ; value: 4 µg/mL

Neighbouring rows are from separate reports. a–b is a range or a potency band.